Anti-infective test results gathered from many reports (values: NIAID ChemDB through PubChem).

Shared fields: tests on isolated targets; agent: HIV-1; protein: Reverse transcriptase; method: nucleotide incorporation / radiometric; endpoint: fold resistance

Fold resistance: result on the changed form divided by that on wild type.

compound	changes	strain	value
CCN1c2ncc(CCOc3ccc(-c4ccc(CCC(=O)O)cc4)cc3C)cc2C(=O)N(C)c2cccnc21	RT-K103N Y181C	IIIB	1
Cc1cc(S(N)(=O)=O)ccc1NC(=O)COc1ccccc1C(=O)c1cc(Cl)cc(C#N)c1	RT-K103N Y181C	NNRTI-resistant	0.6
Cc1occc1C(=S)Nc1ccc(Cl)c(/C=N/OC(C)(C)C)c1	RT-P236L		1.15
CCN1c2ncc(CCOc3ccc(C(C)C(=O)O)c4ccccc34)cc2C(=O)N(C)c2cccnc21	RT-V106A		>10
CCN1c2ncc(CCOc3cccc4c3CN(C)C(=O)N4C)cc2C(=O)N(C)c2cccnc21	RT-K103N Y181C	IIIB	>2
CCN1c2ncc(CCOc3ccc(C(=O)O)c4ccccc34)cc2C(=O)Nc2c(C)cc(F)nc21	RT-Y188L		>10
CCN1c2ncc(CCOc3ccc(-c4ccc(C(C)C(=O)O)cc4)cc3C)cc2C(=O)N(C)c2cccnc21	RT-K103N Y181C	IIIB	1
Cc1cc(C2CC2)cc(C)c1-n1c(Br)nnc1SCC(=O)Nc1ccc(C(=O)O)cc1Cl	RT-Y188L		>2
O=P(O)(O)OP(=O)(O)O	RT-Q151N		1.7
CCN1c2ncc(CCOc3cccc4c3CN(Cc3ccncc3)C4=O)cc2C(=O)N(C)c2cccnc21	RT-K103N Y181C	IIIB	>1
NC(=O)c1[nH]c2ccc(Cl)cc2c1S(=O)(=O)c1ccccc1	RT-V106A		75
CCN1c2ncc(CCOc3ccc(-c4cc[n+]([O-])cc4)cc3C)cc2C(=O)N(C)c2cccnc21	RT-K103N Y181C	IIIB	1
CCc1ccc(-n2c(Br)nnc2SCC(=O)Nc2ccc(C(=O)NCC(=O)OC)cc2Cl)c2ccccc12	RT-Y188L		>1
CCN1c2ncc(CCOc3cccc4c3CNC(=O)N4)cc2C(=O)Nc2c(C)ccnc21	RT-K103N Y181C	IIIB	>2
Cc1cc(C)cc(S(=O)(=O)c2c(C(N)=O)[nH]c3ccc(Cl)cc23)c1	RT-V179D		16.6
CCN1c2ncc(CCOc3ccc(-c4cocn4)cc3C)cc2C(=O)N(C)c2cccnc21	RT-K103N Y181C	IIIB	1
CCN1c2ncc(CCOc3ccc(C(=O)O)c4c3CCCC4)cc2C(=O)N(C)c2ccc(Cl)nc21	RT-V106A		>10
CCN1c2ncc(CCOc3ccc(C(=O)Nc4ccc(CC(=O)O)cc4)cc3C)cc2C(=O)N(C)c2cccnc21	RT-K103N Y181C	IIIB	1
CCNC(=O)N1CCc2c(OCCc3cnc4c(c3)C(=O)N(C)c3cccnc3N4CC)ccc(C(=O)O)c2C1	RT-V106A		1–10
CCN1c2ncc(CCOc3cccc4c3COC(=O)N4)cc2C(=O)N(C)c2cccnc21	RT-K103N Y181C	IIIB	>2
CCN1c2ncc(CCOc3ccc(C(=O)NNC)cc3C)cc2C(=O)N(C)c2cccnc21	RT-K103N Y181C	IIIB	1
CCN1c2ncc(CCOc3ccc(C4CC4C(=O)O)c4ccccc34)cc2C(=O)N(C)c2ccc(F)nc21	RT-K103N Y181C		1–10
CCN1c2ncc(CCOc3ccc(C(=O)NCc4cc[n+]([O-])cc4)cc3C)cc2C(=O)N(C)c2cccnc21	RT-K103N Y181C	IIIB	>1
C=CCO/N=C/c1cc(NC(=S)c2ccoc2C)ccc1Cl	RT-K103N		>8.33
CCc1ccc(-n2c(Br)nnc2SCC(=O)Nc2ccc(C(=O)O)cc2C)c2ccccc12	RT-Y181C		>1
CCN1c2ncc(CCOc3cccc4c3ccc[n+]4[O-])cc2C(=O)Nc2c(C)cc(Cl)nc21	RT-Y181C		1.8
CCc1ccc(-n2c(SCC(=O)Nc3ccc(C(=O)O)cc3Cl)nnc2C(F)F)c2ccccc12	RT-Y188L		>2
Cc1occc1C(=S)Nc1ccc(Cl)c(C(=O)OCC2CC2)c1	RT-P236L		2
CCOC(=O)CCNC(=O)c1ccc(NC(=O)CSc2nnc(Br)n2-c2ccc(CC)c3ccccc23)c(Cl)c1	RT-Y188L		>1
CCN1c2ncc(CCOc3ccc(C(=O)Nc4ccc[n+]([O-])c4)cc3C)cc2C(=O)Nc2c(C)ccnc21	RT-K103N Y181C	IIIB	1

Lines come from different laboratories, so protocols vary. a–b is a range or a potency band. Blank or dashed fields: not listed here.